Results reported in paper PMC12784962, “https://orcid.org/0000-0002-3633-7823 Baral Joydeep Department of Bioscience and Biotechnology, Indian Institute of Technology Kharagpur, West Midnapore 721302, West Bengal, India”.
For at least one entry, the source does not settle the construct or the ends of the probe. Protein sequences can lack the tags named with them.

Molecular target: T1, mKu WT (Mycobacterium tuberculosis) (UniProt P9WKD9)
T1 sequence (looked up, limits assumed): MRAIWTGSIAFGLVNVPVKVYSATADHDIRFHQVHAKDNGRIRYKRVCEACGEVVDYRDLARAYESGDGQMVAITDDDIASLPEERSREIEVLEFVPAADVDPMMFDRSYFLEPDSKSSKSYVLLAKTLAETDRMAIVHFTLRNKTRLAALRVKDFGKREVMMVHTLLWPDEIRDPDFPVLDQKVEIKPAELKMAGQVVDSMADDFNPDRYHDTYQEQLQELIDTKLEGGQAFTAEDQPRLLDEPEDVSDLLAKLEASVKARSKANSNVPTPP
Test: cryo-EM
Conditions: 5 uM mKu dimer and 5 uM DNA, supercomplex; cryo-EM: 4 C, 30 min; recombinant protein; protein details: affinity tag (IMAC, pET16b)

CCCCCCTGTCGCCGCCGACGTCTGTGATATGGCGTTGTTG (double strand) [linear 40-bp dsDNA]
binding result: binds
